The list shows a part of the results, in another mix than the full data. The source made the active and inactive calls. Cut-off read from the data, not from the text of the source: active = activation mostly above about 9.7% (no sharp cut-off); inconclusive = no clear call, values can overlap the other calls; inactive = mostly below about 3.7%.
Test: inducers of Vibrio cholerae quorum light production without autoinducers, primary screen, BH1578 luxS cqsA deficient, single point (AID 588436)
Settings: V. cholerae BH1578 lux reporter, luminescence, 6 h, at 18.7 µM; hits give high values

| Structure (SMILES) | activation |
| --- | --- |
| COc1cc(C(=O)NCC2(N(C)C)CCCCC2)ccc1OC(F)F | inactive: -0.546% |
| CCOC(=O)N1CCC(Nc2cccc(C)c2)CC1 | inactive: -0.316% |
| O=C(NCC1(N2CCCCC2)CCCCC1)c1ccc(F)cc1 | inactive: -0.399% |
| O=P1(N(CCCl)CCCl)SCCCS1 | inactive |
| CCCCOc1ccc(C(=O)NCC2(N3CCOCC3)CCCCC2)cc1 | inactive: -1.01% |
| COc1ccc(NC2CCN(CCc3ccccc3)CC2)c(OC)c1 | inactive: -4.17% |
| CCOC(=O)N1CCC(Nc2ccc(F)cc2)CC1 | inactive: -2.33% |
| CCOc1ccc(C)cc1CN(CCCl)CCCl | inactive |
| O=C1CCN(Cc2ccccc2)CC1 | inactive: -0.238% |
| CCOC(=O)N1CCC(Nc2ccc(OC)cc2)CC1 | inactive: -0.324% |
| O=C(OC1CN2CCC1CC2)C1c2ccccc2Oc2ccccc21 (centres undefined) | inactive: -0.893% |
| N#CC1(Nc2ccccc2)CCN(Cc2ccccc2)CC1 | inactive: -0.006% |
| O=C(NCC1(N2CCCCC2)CCCCC1)c1ccc(Cl)s1 | inactive |
| COc1ccc(Cl)cc1C(=O)NCC1(N2CCOCC2)CCCCC1 | inactive |
| O=C(NCC1(N2CCOCC2)CCCCC1)c1cc2ccccc2o1 | inactive: -3.45% |
| O=C(NCC1(N2CCCCC2)CCCCC1)c1ccc(Cl)nc1 | inactive: 0.917% |
| Cc1cc(C)cc(N(C(=O)c2ccccc2)C2CCN(C(=O)OC(C)(C)C)CC2)c1 | inactive: -7.69% |
| CSc1ccccc1C(=O)NCC1(N2CCCCC2)CCCCC1 | inactive |
| Cc1cccc(NC2(C#N)CCN(Cc3ccccc3)CC2)c1 | inactive: -0.8% |
| O=C(NCC1(N2CCCCC2)CCCCC1)c1ccc(=O)[nH]c1 | inactive: -0.358% |
| O=C(NCC1(N2CCCCC2)CCCCC1)c1cccs1 | inactive |
| COc1ccc(C(=O)NCC2(N3CCCCC3)CCCCC2)cc1 | inactive: -0.488% |
| CC(C)(C)OC(=O)N1CCC(N(C(=O)c2ccccc2)c2ccc(F)cc2)CC1 | inactive: 0.806% |
| COc1ccc(C(=O)NCC2(N3CCCCC3)CCCCC2)c(OC)c1OC | inactive |
| Cc1ccc(C(=O)NCC2(N(C)C)CCCCC2)o1 | inactive: 0.459% |

| Structure (SMILES) | activation |
| --- | --- |
| CCCOc1ccc(C(=O)NCC2(N(C)C)CCCCC2)cc1OC | inactive |
| O=C(NCC1(N2CCCCC2)CCCCC1)c1cncc(Br)c1 | inactive: -3.73% |
| CN1CCC(Nc2cccc(F)c2)CC1 | inactive: 0.746% |
| COc1cc(OC)c(C(=O)NCC2(N(C)C)CCCCC2)cc1OC | inactive |
| O=C(NCC1(N2CCOCC2)CCCCC1)c1cc(F)c(F)cc1Cl | inactive |
| COc1ccc(CN(CCCl)CCCl)cc1Cl | inactive: -0.53% |
| CN(C)c1cccc(C(=O)NCC2(N3CCCCC3)CCCCC2)c1 | inactive: -0.603% |
| CC(C)c1ccc(NC2CCN(C(=O)OC(C)(C)C)CC2)cc1 | inactive: -1.14% |
| CN1CCN(CCOC(=O)C(O)(c2ccccc2)c2ccccc2)CC1 | inactive |
| CC(C)c1ccc(C(=O)NCC2(N3CCOCC3)CCCCC2)cc1 | inactive: -1.82% |
| COc1ccc(NC2CCN(C(=O)OC(C)(C)C)CC2)cc1 | inactive |
| COc1cc(C(=O)NCC2(N3CCCCC3)CCCCC2)ccc1OC(F)F | inactive: -0.002% |
| O=C(NCC1(N2CCOCC2)CCCCC1)c1cc(=O)[nH]c2ccccc12 | inactive |
| O=C(NCC1(N2CCCCC2)CCCCC1)c1cccc(C(F)(F)F)c1 | inactive: -0.284% |
| CSc1ccc(C(=O)NCC2(N3CCOCC3)CCCCC2)cc1 | inactive: -4.79% |
| CCN1CCC(Nc2ccc(Cl)cc2)CC1 | inactive |
| N#CC1(Nc2ccccc2)CCN(CCc2ccccc2)CC1 | inactive |
| O=C(NCC1(N2CCCCC2)CCCCC1)c1ccc(OC(F)F)cc1 | inactive: -0.438% |
| c1ccc(CN2CCC(Nc3ccccc3)CC2)cc1 | inactive: -0.623% |
| Cc1cc(N(CCCl)CCCl)ccc1C=O | inactive: 5.56% |
| CCCN1CCC(Nc2cc(OC)cc(OC)c2)CC1 | inactive |
| CN(C)C1(CNC(=O)c2cccc(C#N)c2)CCCCC1 | inactive: -7.69% |
| CC(C)(C)OC(=O)N1CCC(N(C(=O)c2ccccc2)c2ccc(Cl)cc2)CC1 | inactive: -0.101% |
| N#Cc1ccc(C(=O)NCC2(N3CCCCC3)CCCCC2)cc1 | inactive: -0.292% |
| O=C(OC1CN2CCC1CC2)C1c2ccccc2C=Cc2ccccc21 (centres undefined) | inactive: -0.343% |

| Structure (SMILES) | activation |
| --- | --- |
| N/C(=N\O)c1c(N)no[n+]1[O-] | inactive: -0.286% |
| CCOC(=O)N1CCC(Nc2ccc(C)cc2)CC1 | inactive: 0.477% |
| COc1ccc(C(=O)NCC2(N3CCOCC3)CCCCC2)cc1OC | inactive: -0.207% |
| O=C(NCC1(N2CCOCC2)CCCCC1)c1cc(Br)ccc1Cl | inactive |
| COc1cc(C(=O)NCC2(N3CCOCC3)CCCCC2)cc(OC)c1C | inactive |
| CN1CCC(Nc2ccc(Cl)cc2)CC1 | inactive |
| CCC(CO)(C(=O)OC1CN2CCC1CC2)c1ccccc1 (centres undefined) | inactive |
| COc1cc(OC)cc(C(=O)NCC2(N3CCOCC3)CCCCC2)c1 | inactive: -0.412% |
| COc1cccc(C(=O)N(c2cc(C)cc(C)c2)C2CCN(C(=O)OC(C)(C)C)CC2)c1 | inactive: -10% |
| CCCOc1ccc(C(=O)NCC2(N(C)C)CCCCC2)cc1 | inactive |
| CC(C)(C)OC(=O)N1CCC(Nc2ccccc2)CC1 | inactive |
| O=C(O)C1(Nc2ccccc2)CCN(Cc2ccccc2)CC1 | inactive: -1.35% |
| CCOc1ncccc1C(=O)NCC1(N2CCOCC2)CCCCC1 | inactive: -0.198% |
| CN1CCC(Nc2ccc(F)c(Cl)c2)CC1 | inactive: -1.2% |
| O=C(NCC1(N2CCCCC2)CCCCC1)c1ccco1 | inactive: -0.295% |
| Cn1c(=O)[nH]cc(N(CCCl)CCCl)c1=O | inactive: 0.834% |
| CN(C)c1ccc(C(=O)NCC2(N3CCCCC3)CCCCC2)cc1 | inactive: -0.335% |
| Cc1ccccc1NC1(C#N)CCN(Cc2ccccc2)CC1 | inactive: -1.28% |
| CCN1CCC(Nc2cccc(F)c2)CC1 | inactive: -0.213% |
| Cc1ccc(NC2(C#N)CCN(Cc3ccccc3)CC2)cc1 | inactive: 0.8% |
| Cc1ccc(C(=O)NCC2(N3CCCCC3)CCCCC2)o1 | inactive |
| Fc1ccccc1NC1CCN(Cc2ccccc2)CC1 | inactive |
| COc1cc(OC)cc(C(=O)NCC2(N3CCCCC3)CCCCC2)c1 | inactive |
| CC(=O)N(c1ccccc1)C1CCNCC1 | inactive |

From PubChem BioAssay AID588436 (Broad Institute, 2011)
